# From PMC11123948, “Leucoverdazyls as Novel Potent Inhibitors of Enterovirus Replication” (Pathogens, 2024)
# What was measured:
# CVB5 = assay: Viral yield reduction assay, CVB5; format: cell-based, Coxsackievirus B5 (clinical isolate); details: ratio CC50/IC50, CVB5, Vero cells
# CVA24 = assay: Viral yield reduction assay, CVA24; format: cell-based, Coxsackievirus A24 (clinical isolate); details: ratio CC50/IC50, CVA24, RD cells
# CVA16 = assay: Viral yield reduction assay, CVA16; format: cell-based, Coxsackievirus A16 (clinical isolate); details: ratio CC50/IC50, CVA16, RD cells
# CVB4 (strain Powers) = assay: Viral yield reduction assay, CVB4; format: cell-based, Coxsackievirus B4 (CVB4; details: ratio CC50/IC50, CVB4 (strain Powers), Vero cells
# ECHO30 = assay: Viral yield reduction assay, ECHO30; format: cell-based, ECHO30 (clinical isolate); details: ratio CC50/IC50, ECHO30, RD cells
# Coxsackie B3 virus = format: cell-based, Coxsackievirus B3 (CVB3, strain Nancy); details: ratio CC50/IC50, Coxsackie B3 virus, Vero cells
Structure (SMILES),SI (Coxsackie B3 virus),further results
c1ccc(C2=NN(c3nc4ccccc4s3)CN(c3ccccc3)N2)cc1 [Compound 1a],230,SI (CVB5): 413; SI (CVA24): 747; SI (CVA16): 841; SI (CVB4 (strain Powers)): 364; SI (ECHO30): 420
COc1ccc(N2CN(c3nc4ccccc4s3)N=C(c3ccccc3)N2)cc1 [Compound 1b],>250,
Clc1ccc(N2CN(c3nc4ccccc4s3)N=C(c3ccccc3)N2)cc1 [Compound 1c],43,
Brc1ccc(N2CN(c3nc4ccccc4s3)N=C(c3ccccc3)N2)cc1 [Compound 1d],142,
CC1N(c2nc3ccccc3s2)N=C(c2ccccc2)NN1c1ccccc1 (stereo not drawn) [Compound 2a],>50,
COc1ccc(N2NC(c3ccccc3)=NN(c3nc4ccccc4s3)C2C)cc1 (stereo not drawn) [Compound 2b],85,
CCc1ccc(N2NC(c3ccccc3)=NN(c3nc4ccccc4s3)C2C)cc1 (stereo not drawn) [Compound 2c],>2,
CC1N(c2nc3ccccc3s2)N=C(c2ccccc2)NN1c1ccc(F)cc1 (stereo not drawn) [Compound 2d],<1,
CC1N(c2nc3ccccc3s2)N=C(c2ccccc2)NN1c1ccc(Br)cc1 (stereo not drawn) [Compound 2e],<1,
CCC1N(c2nc3ccccc3s2)N=C(c2ccccc2)NN1c1ccccc1 (stereo not drawn) [Compound 3a],>2,
CCC1N(c2nc3ccccc3s2)N=C(c2ccccc2)NN1c1ccc(OC)cc1 (stereo not drawn) [Compound 3b],>38,
CCC1N(c2nc3ccccc3s2)N=C(c2ccccc2)NN1c1ccc(F)cc1 (stereo not drawn) [Compound 3c],5,
C=CC1N(c2nc3ccccc3s2)N=C(c2ccccc2)NN1c1ccccc1 (stereo not drawn) [Compound 4a],>2,
C=CC1N(c2nc3ccccc3s2)N=C(c2ccccc2)NN1c1ccc(OC)cc1 (stereo not drawn) [Compound 4b],>2,
C=CC1N(c2nc3ccccc3s2)N=C(c2ccccc2)NN1c1ccc(Cl)cc1 (stereo not drawn) [Compound 4c],10,
C=CC1N(c2nc3ccccc3s2)N=C(c2ccccc2)NN1c1ccc(I)cc1 (stereo not drawn) [Compound 4d],29,
"Cl.N=C(N)N [Guanidine hydrochloride, reference compound]",,SI (CVB5): >10; SI (CVA24): >33; SI (CVA16): >31; SI (CVB4 (strain Powers)): >10; SI (ECHO30): >83
"Cc1cc(CCCOc2c(C)cc(-c3noc(C(F)(F)F)n3)cc2C)on1 [Pleconaril, reference compound]",43,
